From ChEMBL document CHEMBL1151959, “Identification and biological evaluation of a series of 1H-benzo[de]isoquinoline-1,3(2H)-diones as hepatitis C virus NS5B polymerase inhibitors” (J Med Chem, 2009)

Chains of the proteins cited; added tags and fusions are not shown.
UniProt O39930, entry or part of it M423K: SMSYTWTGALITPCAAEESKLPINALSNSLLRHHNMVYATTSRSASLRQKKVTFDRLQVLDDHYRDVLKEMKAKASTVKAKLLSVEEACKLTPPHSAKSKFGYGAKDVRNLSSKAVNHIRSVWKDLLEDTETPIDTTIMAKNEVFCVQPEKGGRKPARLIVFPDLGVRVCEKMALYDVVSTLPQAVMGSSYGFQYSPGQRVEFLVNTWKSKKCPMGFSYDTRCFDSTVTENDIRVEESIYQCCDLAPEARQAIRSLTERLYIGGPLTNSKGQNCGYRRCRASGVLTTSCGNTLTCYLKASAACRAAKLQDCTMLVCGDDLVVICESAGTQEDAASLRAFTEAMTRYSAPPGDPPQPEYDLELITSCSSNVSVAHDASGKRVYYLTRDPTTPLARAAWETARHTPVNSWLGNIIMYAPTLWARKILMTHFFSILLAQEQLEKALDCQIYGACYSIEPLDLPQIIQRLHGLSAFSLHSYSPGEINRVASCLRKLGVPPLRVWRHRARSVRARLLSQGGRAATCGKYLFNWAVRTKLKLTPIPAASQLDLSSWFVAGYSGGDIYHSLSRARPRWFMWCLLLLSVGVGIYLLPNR
UniProt O39930, entry or part of it M414T: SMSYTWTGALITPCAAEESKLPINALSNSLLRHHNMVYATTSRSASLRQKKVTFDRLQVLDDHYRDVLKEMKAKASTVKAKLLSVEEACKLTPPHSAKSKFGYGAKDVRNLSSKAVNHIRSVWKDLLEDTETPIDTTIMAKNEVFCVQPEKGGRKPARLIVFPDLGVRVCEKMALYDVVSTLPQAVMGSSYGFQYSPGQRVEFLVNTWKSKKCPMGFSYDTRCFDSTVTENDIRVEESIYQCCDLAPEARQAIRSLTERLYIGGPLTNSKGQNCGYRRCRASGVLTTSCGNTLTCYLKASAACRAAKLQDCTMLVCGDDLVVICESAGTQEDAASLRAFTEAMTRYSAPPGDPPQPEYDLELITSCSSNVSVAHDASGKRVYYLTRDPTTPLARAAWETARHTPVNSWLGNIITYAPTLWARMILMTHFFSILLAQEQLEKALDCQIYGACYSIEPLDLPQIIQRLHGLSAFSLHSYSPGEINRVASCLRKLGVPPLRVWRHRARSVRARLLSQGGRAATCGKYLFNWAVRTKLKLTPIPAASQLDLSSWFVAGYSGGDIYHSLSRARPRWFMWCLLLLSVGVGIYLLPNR

Key:
Parameters in all cases: species or system Hepatitis C virus (isolate BK)
[1] = Inhibition of HCV1b BK NS5B Cdelta21 RNA dependent RNA polymerase Thumb site 2 R501E mutant
[2] = biological target: RNA-directed RNA polymerase (Hepacivirus hominis, UniProt O39930, M423K); test: Inhibition of HCV1b BK NS5B Cdelta21 RNA dependent RNA polymerase Thumb site 2 M423K mutant
[3] = biological target: RNA-directed RNA polymerase (Hepacivirus hominis, UniProt O39930, M414T); test: Inhibition of HCV1b BK NS5B Cdelta21 RNA dependent RNA polymerase Palm site 1 and 2 M414T mutant

SMILES: O=C1c2cccc3c(NCCO)ccc(c23)C(=O)N1c1cccc(Br)c1
- IC50 [1]: 500 nM
- IC50 [2]: > 1000 nM
- IC50 [3]: 78 nM
